Anti-infective test results gathered from many reports (values: NIAID ChemDB through PubChem).

Common to all: whole-cell or culture tests; species: Pneumocystis carinii; measure: EC50

An empty or dashed field is not shown. Conditions beyond the fields shown may differ between rows. ECn is the concentration giving n% inhibition of infection, replication or growth.

{"compound": "Cc1ccnc2c1NC(=O)c1cccnc1N2C1CC1", "result": ">100 µg/mL"}
{"compound": "CCc1nc(N)nc(N)c1-c1ccc(Cl)cc1", "result": "26.1 µM"}
{"compound": "CC1(C)S[C@@H]2[C@H](NC(=O)[C@H](N)c3ccccc3)C(=O)N2[C@H]1C(=O)O", "result": "10 µg/mL"}
{"compound": "CC1(C)N=C(N)N=C(N)N1c1cccc(OCCCOc2ccc(N)cc2)c1", "result": "14.1 µM"}
{"compound": "N=C(N)c1ccc(OCc2cccc(COc3ccc(C(=N)N)cc3)c2)cc1", "cell line": "A549", "result": "1.18 µg/mL"}
{"compound": "CN(Cc1cnc2nc(N)nc(N)c2n1)c1ccc(C(=O)N[C@@H](CCC(=O)O)C(=O)O)cc1", "result": "4.3 µM"}
{"compound": "O=C(O)CNCP(=O)(O)O", "conditions": "7 d", "result": ">10 µM"}
{"compound": "CN(Cc1cnc2nc(N)nc(N)c2n1)c1c(Cl)cc(C(=O)N[C@@H](CCC(=O)O)C(=O)O)cc1Cl", "result": "0.72 µM"}
{"compound": "NNC(=O)c1ccc(N2CCN(c3ccc(C(=O)NN)cc3)CC2)cc1", "cell line": "A549", "result": "6.02 µg/mL"}
{"compound": "CCc1nc(N)nc(N)c1-c1ccc(Cl)c(N=NN(C)C)c1", "result": "5.5 µM"}
{"compound": "N=C(N)c1ccc(NC(=O)CCCC(=O)Nc2ccc(C(=N)N)cc2)cc1", "cell line": "A549", "result": "0.0013 µg/mL"}
{"compound": "Nc1ccc(S(=O)(=O)Nc2cc(I)cc(I)c2)cc1", "conditions": "5 d", "result": "<100 µM"}
{"compound": "CCC[C@@H]1C[C@@H](C(=O)N[C@@H]([C@H]2O[C@H](SC)[C@H](O)[C@@H](O)[C@H]2O)[C@H](C)Cl)N(C)C1", "conditions": "10 d", "result": ">5 µg/mL"}
{"compound": "Cc1cn([C@H]2C[C@H](N=[N+]=[N-])[C@@H](CO)O2)c(=O)[nH]c1=O", "result": ">100 µg/mL"}
{"compound": "Nc1ccc(S(=O)(=O)Nc2cc(F)cc(F)c2)cc1", "conditions": "5 d", "result": ">100 µM"}
{"compound": "CN(C/C=C/C#CC(C)(C)C)Cc1cccc2ccccc12", "cell line": "A549", "result": "0.3 µg/mL"}
{"compound": "N/C(=N\\O)c1ccc(N2CCN(c3ccc(/C(N)=N/O)cc3)CC2)cc1", "cell line": "A549", "result": "3.3 µg/mL"}
{"compound": "Nc1nc(N)c2nc(CSc3ccccc3)cnc2n1", "result": "75 µM"}
{"compound": "CC(=O)c1ccc(N2CCN(c3ccc(C(C)=O)cc3)CC2)cc1", "cell line": "A549", "result": ">100 µg/mL"}
{"compound": "CC(C)(C)[C@]1(O)C[C@@H]2OC(=O)C[C@@]23C(=O)O[C@@H]2OC(=O)[C@H](O)[C@]213", "result": "50 µg/mL"}

The last 2 rows once more:

compound	cell line	conditions	result
CC(=O)c1ccc(N2CCN(c3ccc(C(C)=O)cc3)CC2)cc1	A549	-	>100 µg/mL
CC(C)(C)[C@]1(O)C[C@@H]2OC(=O)C[C@@]23C(=O)O[C@@H]2OC(=O)[C@H](O)[C@]213	-	-	50 µg/mL